By koff is commonly meant a measure of how fast the partners let go of each other. For orientation: kon means the second-order rate constant of association. Read a high kon as fast association.

This test deals with BG505 SOSIP.v4.1-2XStrep (N332) (HIV-1 (BG505)). Kind of test: BLI. (BLI is a label-free optical method that tracks binding on a fibre tip over time.)

With 2G12 Fab2, the koff was determined as 0.000965 s⁻¹ and the kon is 227000 M⁻¹ s⁻¹.

These data come from article PMC7416112 (Structure(London, England:1993), 2020).
